Compound potency records, mixed from different reports. Data source: NIAID ChemDB in PubChem.

All rows: tests in culture; organism: Hepatitis B virus; read-out: EC50

Conditions beyond the fields shown may differ between rows.

SMILES	cells	changes	strain or isolate	value
O=C(N/C(C(=O)N1CCCCC1)=C(/Cl)c1ccccc1)c1ccccc1	2.2.15	-	-	5.7 µM
Cc1cn(C[C@H]2C[C@H]2CO)c(=O)[nH]c1=O	2.2.15	-	-	>10 µM
C[C@]1(CO)O[C@@H](n2ccc(N)nc2=O)[C@H](O)[C@@H]1O	HepG2.2.15	-	-	>10 µM
Cc1cn(C[C@H]2C[C@H]2[C@H](O)CO)c(=O)[nH]c1=O	2.2.15	-	-	>10 µM
O=C1NNC(=O)c2c(ncn2[C@@H]2O[C@H](CO)[C@@H](O)[C@H]2O)N1	2.2.15	-	-	>30 µM
O=c1[nH]c(=O)n(COC(CO)CO)cc1Cl	D88	-	Mutant L180M/M204V	40 µg/mL
C[C@]1(CO)O[C@@H](n2ccc(=O)[nH]c2=O)[C@H](O)[C@@H]1O	HepG2.2.15	-	-	>10 µM
Nc1[nH]c(=O)c2ncn([C@@H]3O[C@H](CO)[C@@H](O)[C@H]3O)c2c1Br	-	-	-	>10 µM
Nc1ccn([C@@H]2CC[C@H](CO)O2)c(=S)n1	-	-	-	>100 µM
Nc1[nH]c(=O)c2ncn([C@@H]3O[C@H](CO)[C@@H](O)[C@H]3O)c2c1Cl	-	-	-	>10 µM
Nc1ncnc2c1ncn2C[C@H]1C[C@H]1[C@H](O)CO	2.2.15	-	-	>10 µM
COC(=O)C1=C(C)NC(c2ccccc2)=N[C@H]1c1ccc(F)cc1Cl	HepG2.2.15	-	-	>100 µM
Nc1nc2c(ncn2[C@@H]2O[C@H](COP(=O)(O)OP(=O)(O)OP(=O)(O)O)[C@H]2CO)c(=O)[nH]1	HB611	-	-	1.5 µM
CCOCC1=C(C(=O)OCC)C(c2ccc(F)cc2Br)N=C(c2ncccc2F)N1	HepG2.2.15	-	-	0.1 µM
Nc1nc2c(ncn2[C@@H]2C[C@H](CO)[C@H]2CO)c(=O)[nH]1	HepAD38	-	-	0.5 µg/mL
O=c1[nH]c(=O)n(COCCO)cc1[N+](=O)[O-]	B1	-	Mutation M204I	30 µM
C=C1C(COP(=O)(N[C@@H](C)C(=O)OC)Oc2ccccc2)C(O)C(F)C1n1cnc2c(N)ncnc21	Huh7	L180M+M204V+S202G	-	0.054 µM
C=C(C)[C@H](O)CC[C@]1(C)CC[C@]2(C)[C@H]3CC[C@@]4(C)[C@@H](CCC(=O)[C@@H]4C)[C@]3(C)CC[C@@]2(C)C1	HepG2.2.15	-	-	2.7 µM
C=C1[C@H](CO)[C@H]1Cn1cnc2c(N)ncnc21	-	-	-	>100 µM
COc1ccc(Sc2nc(N)nc3c2ncn3CCOCP(=O)(OCC(F)(F)F)OCC(F)(F)F)cc1	HB611	-	-	0.03 µM
O=c1[nH]c(=O)n([C@H]2O[C@@H](CO)[C@H](O)[C@H]2O)cc1/C=C/Br	-	-	-	>100 µM
O=c1[nH]c(=O)n(COCCO)cc1Cl	D88	-	Mutations L180M M204V	70 µM
Nc1ncc(Cl)c2c1ncn2[C@@H]1O[C@H](CO)[C@@H](O)[C@H]1O	-	-	-	>10 µM
COc1nc(N)nc2c1ncn2[C@H]1CO[C@@H](CO)O1	AD38	-	Wild	33.4 µM
N#CCCC1C(=O)c2ccc(-c3ccccc3)cc2OC12CCCCC2	HepG2.2.15	-	-	0.3 µM
COc1ccc(CNC(=O)c2c3n(c(=O)n2CCc2ccccc2)CCN(C(=O)c2ccc(Br)c(Cl)c2)C3)cc1	Hep2.117	-	-	>5 µM
Nc1nc2c(ncn2C[C@]2(CO)C[C@H]2CO)c(=O)[nH]1	HEPAD79	-	-	>20 µg/mL
O=c1[nH]c(=O)n(COCCO)cc1C(F)(F)F	D88	-	Mutations L180M M204V	50 µM
C[C@@H]1Cc2nn3c(c2CN1C(=O)Nc1ccc(F)c(C#N)c1)C(=O)N(C)C[C@H](c1ccno1)C3	HepG2.2.15	-	-	22 µM
COC(=O)C1=C(C)N(C(C)=O)C(c2ccccn2)=NC1c1ccccc1Cl	HepG2.2.15	-	-	12 µM
Cc1cn([C@@H]2O[C@H](CO)[C@](O)(C(F)(F)F)[C@H]2O)c(=O)[nH]c1=O	-	-	-	≥100 µM
C=C1[C@H](CO)[C@H]1Cn1cnc2c(Cl)nc(N)nc21	-	-	-	>100 µM
Nc1ncnc2c1ncn2[C@H]1CC[C@@H](CO)O1	HepG2 2.2.15	-	-	>10 µM
C=C1[C@H](CO)[C@H]1Cn1cnc2c(Cl)ncnc21	-	-	-	>100 µM
COC(=O)[C@H](C)NP(=O)(OC[C@@H]1O[C@H](n2cnc3c(N)ncnc32)CC1F)Oc1ccccc1	HepG2 2.2.15	-	-	24 µM
COCCC1=C(C(=O)OC)[C@H](c2ccc(F)cc2Cl)N=C(c2ncc(F)cc2F)N1	HepG2.2.15	-	-	0.06 µM
CCOC(=O)[C@H](C)NP(=O)(OC[C@@H]1OC[C@H](n2cnc3c(OC)nc(N)nc32)O1)Oc1ccccc1	AD38	-	Wild	0.2 µM
Nc1nc(=O)n([C@@H]2O[C@H](CO)[C@@H](CO)[C@@H]2F)cc1F	HepG2.2.15	-	-	0.13 µM
Nc1nc2c(ncn2CCC(CO)CO)c(=O)[nH]1	HEPAD79	-	-	45 µg/mL
Nc1ncc(Br)c2c1ncn2[C@@H]1C[C@H](O)[C@@H](O)[C@H]1O	HepG2.2.15	-	-	0.022 µM
O=c1ccn(C[C@H]2C[C@H]2[C@H](O)CO)c(=O)[nH]1	2.2.15	-	-	>10 µM
Nc1ncnc2c1ncn2[C@H]1CC(F)[C@@H](CO)O1	HepG2 2.2.15	-	-	140 µM
Nc1cn(COCCO)c(=O)[nH]c1=O	D88	-	Mutations L180M M204V	30 µM
C=C1[C@H](CO)[C@@H](O)C[C@@H]1n1cnc2c(=O)[nH]c(N)nc21	HepG2 2.2.15	-	-	0.0038 µM
COC(=O)[C@H](C)NP(=O)(OCC1C/C1=C/n1cnc2c(N)ncnc21)Oc1ccccc1	2.2.15	-	-	0.01 µM
Nc1ncnc2c1ncn2[C@@H]1C[C@@H](F)[C@H](CO)O1	HepG2 2.2.15	-	-	186 µM
COC(=O)CCC1=C(C(=O)OC)C(c2ccccc2Cl)N=C(c2ccccn2)N1	HepG2.2.15	-	-	>100 µM
C[C@H](NC(=O)c1c2n(c(=O)n1-c1ccc(OCC(F)(F)F)cc1)CCN(C(=O)c1ccc(Br)c(Cl)c1)C2)c1ccc(OC2COC2)cc1F	HepG2.117	-	-	0.1–0.5 µM
Cc1c([N+](=O)[O-])c(=O)[nH]c(=O)n1COCCO	B1	-	Mutation M204I	25 µM
O=C1OCc2c1cc1ccc3c(c1c2-c1ccc2c(c1)OCO2)OCO3	HepG2.2.15	-	-	1 µM
Nc1nc(Cl)c(Cl)c2c1ncn2[C@@H]1O[C@H](CO)[C@@H](O)[C@H]1O	-	-	-	>10 µM
CCc1cn(COCCO)c(=S)[nH]c1=O	D88	-	Mutations L180M M204V	40 µM
Nc1nc2c(ncn2CCC(CO)COP(=O)(O)OP(=O)(O)OP(=O)(O)O)c(=O)[nH]1	2.2.15	-	-	0.6 µM
COC(=O)C1=C(C)NC(c2ncc(F)cc2F)=N[C@H]1c1ccc(F)cc1Cl	HepG2.2.15	-	-	0.053 µM
Nc1nccc2c1ncn2[C@@H]1O[C@H](CO)[C@@H](O)[C@H]1O	-	-	-	>10 µM
CNc1ncnc2c1ncn2[C@H]1CC(F)[C@@H](COP(=O)(N[C@@H](C)C(=O)OC)Oc2ccccc2)O1	HepG2 2.2.15	-	-	0.5 µM
Nc1nc2c(ncn2COC(CO)CO)c(=O)[nH]1	HEPAD79	-	-	>50 µg/mL
CCC(O)CC1=C(C(=O)OC)C(c2ccc(F)cc2Cl)N=C(c2ncc(F)cc2F)N1	HepG2.2.15	-	-	0.3 µM
CCOC(=O)[C@H](C)NP(=O)(OC[C@@H]1OC[C@H](n2cnc3c(Cl)nc(N)nc32)O1)Oc1ccccc1	AD38	-	Wild	0.8 µM

5 of the rows above, restated:

| SMILES | cells | changes | strain or isolate | value |
|---|---|---|---|---|
| COC(=O)[C@H](C)NP(=O)(OCC1C/C1=C/n1cnc2c(N)ncnc21)Oc1ccccc1 | 2.2.15 | - | - | 0.01 µM |
| N#CCCC1C(=O)c2ccc(-c3ccccc3)cc2OC12CCCCC2 | HepG2.2.15 | - | - | 0.3 µM |
| Nc1nc2c(ncn2COC(CO)CO)c(=O)[nH]1 | HEPAD79 | - | - | >50 µg/mL |
| O=C1NNC(=O)c2c(ncn2[C@@H]2O[C@H](CO)[C@@H](O)[C@H]2O)N1 | 2.2.15 | - | - | >30 µM |
| C[C@H](NC(=O)c1c2n(c(=O)n1-c1ccc(OCC(F)(F)F)cc1)CCN(C(=O)c1ccc(Br)c(Cl)c1)C2)c1ccc(OC2COC2)cc1F | HepG2.117 | - | - | 0.1–0.5 µM |

ECn is the concentration giving n% inhibition of infection, replication or growth. Two numbers with a dash give a range or band. An empty or dashed field is not shown.